# In publication PMC12067436, “Toward Dual-Target Glycomimetics against Two Bacterial Lectins to Fight Pseudomonas aeruginosa–Burkholderia cenocepacia Infections: A Biophysical Study” (2025):
# The chains behind the UniProt entries cited, without tags or fusion partners. Residues count along the entry.
# UniProt Q9HYN5, 2-115 limits assumed: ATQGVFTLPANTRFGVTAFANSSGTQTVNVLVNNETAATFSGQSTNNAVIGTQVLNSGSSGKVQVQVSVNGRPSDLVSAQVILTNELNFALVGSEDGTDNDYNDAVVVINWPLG
# UniProt B4EH86, 1-132 limits assumed: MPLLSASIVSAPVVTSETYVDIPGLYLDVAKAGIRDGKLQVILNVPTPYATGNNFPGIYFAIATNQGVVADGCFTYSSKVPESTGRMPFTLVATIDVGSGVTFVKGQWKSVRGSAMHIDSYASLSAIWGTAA
# “And” between values parts separate entries of the source, which are not always exact repeats. Identical values can stand only once. Like-named read-outs stand apart in the source and are kept apart here.
# What was measured:
# LecB from PAO1 [1] = target: T1, LecB from PAO1 (Pseudomonas aeruginosa, UniProt Q9HYN5); assay: LecB competitive binding assay using fluorescence polarization; conditions: read-out: LecB IC50, LecB from strain PAO1
# BC2L-A = conditions: read-out: BC2L-A KD (ITC); cited from earlier work
# BC2L-C-Nt [2] = target: T2, BC2L-C-Nt (Burkholderia cenocepacia, UniProt B4EH86); conditions: read-out: BC2L-C-Nt IC50; SPR competition assay on a fucose chip; cited from earlier work
# BC2L-C-Nt [3] = target: T2, BC2L-C-Nt; conditions: cited from earlier work
# LecB from PAO1 [4] = target: T1, LecB from PAO1; conditions: read-out: LecB IC50, LecB from strain PAO1, cited from earlier work
# [5] = tested on: P. aeruginosa biofilm formation; conditions: in vitro; cited from earlier work
# BC2L-C-Nt [6] = target: T2, BC2L-C-Nt; assay: ITC affinity for BC2L-C-Nt
# [7] = read-out: BC2L-C-Nt KD (ITC), ref Mazzotta et al.[32]
# [8] = read-out: BC2L-C-Nt KD (ITC), ref Bermeo et al.[33]
compound,measurement,setting,value
C[C@@H]1O[C@H](NC(=O)c2ccc(CN)cc2)[C@@H](O)[C@H](O)[C@@H]1O,IC50,LecB from PAO1 [1],0.28 µM and 0.17 µM
C[C@@H]1O[C@H](NC(=O)c2ccc3[nH]ccc3c2)[C@@H](O)[C@H](O)[C@@H]1O,IC50,LecB from PAO1 [1],0.09 µM
OC[C@H]1OC(O)[C@@H](O)[C@@H](O)[C@@H]1O (stereo partly drawn),Kd,BC2L-A,2.8 µM
C[C@@H]1O[C@H](NC(=O)c2ccc(-c3cccc(CN)c3)o2)[C@@H](O)[C@H](O)[C@@H]1O,IC50,LecB from PAO1 [1],0.35 µM
same,IC50,BC2L-C-Nt [2],103 µM
same,Kd,BC2L-C-Nt [3]; [7],159 µM
CNCc1ccc(C(=O)N[C@H]2O[C@@H](C)[C@@H](O)[C@@H](O)[C@@H]2O)cc1,IC50,LecB from PAO1 [1],0.23 µM
same,Kd,BC2L-C-Nt [3]; [8],> 2000 µM
C[C@@H]1O[C@H](NC(=O)c2ccc(C(C)(C)CN)cc2)[C@@H](O)[C@H](O)[C@@H]1O,IC50,LecB from PAO1 [1],4.24 µM
same,Kd,BC2L-C-Nt [3]; [8],> 2000 µM
CC(=O)NCc1cccc(-c2ccc(C(=O)N[C@H]3O[C@@H](C)[C@@H](O)[C@@H](O)[C@@H]3O)o2)c1,IC50,LecB from PAO1 [1],0.65 µM
H-type 1 trisaccharide,Kd,BC2L-C-Nt [3]; read-out: BC2L-C-Nt KD (ITC),25 µM
C[C@@H]1O[C@H](NC(=O)C2CCCN2)[C@@H](O)[C@H](O)[C@@H]1O (stereo partly drawn),IC50,LecB from PAO1 [1],1.11 µM
C[C@@H]1O[C@H](CNC(=O)c2cc3ccccc3[nH]2)[C@@H](O)[C@H](O)[C@@H]1O,IC50,LecB from PAO1 [4]; ref Sommer et al.[36],7.93 µM
C[C@@H]1O[C@H](NC(=O)c2cccc(CN)c2)[C@@H](O)[C@H](O)[C@@H]1O,IC50,LecB from PAO1 [1],0.28 µM
CO[C@@H]1O[C@@H](C)[C@@H](O)[C@@H](O)[C@@H]1O,inhibition of P. aeruginosa biofilm formation,[5],failed
same,Kd,BC2L-C-Nt [3]; [7],2700 µM
same,Kd,BC2L-C-Nt [3]; read-out: BC2L-C-Nt KD (ITC),2700 µM
C[C@@H]1O[C@H](NC(=O)c2ccc3cc[nH]c3c2)[C@@H](O)[C@H](O)[C@@H]1O,IC50,LecB from PAO1 [1],0.05 µM
same,Kd,BC2L-C-Nt [3]; [8],> 2000 µM
same,"affinity for BC2L-C-Nt, fold weaker than regioisomer 9",BC2L-C-Nt [6],5 fold
C[C@@H]1O[C@H](CNS(=O)(=O)c2ccc(C#CC(C)(C)O)s2)[C@@H](O)[C@H](O)[C@@H]1O,IC50,LecB from PAO1 [4]; ref Sommer et al.[37],3.14 µM
C[C@@H]1O[C@H](NC(=O)c2ccc(-c3ccccc3)cc2)[C@@H](O)[C@H](O)[C@@H]1O,IC50,LecB from PAO1 [1],0.14 µM
C[C@@H]1O[C@H](CNS(=O)(=O)c2ccc(C#Cc3ccccc3)s2)[C@@H](O)[C@H](O)[C@@H]1O,IC50,LecB from PAO1 [4]; ref Sommer et al.[37],1.52 µM
